Values of other authors, collected in patent US11913031B2, “Method to reproduce circadian rhythms on a microfluidic chip” (Yissum Research Development Company of the Hebrew …, priority 2017, dated 2024).

Tested on: liver
Conditions: Table 4 compound list, toxicological end-point; cited from earlier work

Aflatoxin B1
Toxicity: Apoptosis
